Results of unrelated studies side by side (data: NIAID ChemDB).

Common to all: toxicity to cultured cells; cells: MT-4; read-out: CC50

Lines come from different laboratories, so protocols vary. An empty or dashed field is not shown. CCn: concentration that lowers growth or viability of the cells by n%.

smiles	method	value
Cc1cn([C@H]2C[C@H](N=[N+]=[N-])[C@@H](CO)O2)c(=O)[nH]c1=O	MTT	>25 µg/mL
O=c1cc(-c2ccc(O)cc2O)oc2cc(O)cc(O)c12		15 µg/mL
CC(C)(C)[Si](C)(C)OC[C@H]1O[C@@H](n2ccc(=O)n(CC(=O)O)c2=O)[C@H](O[Si](C)(C)C(C)(C)C)[C@@H]1O		21 µM
CC1NS(=O)(=O)c2cc(Cl)ccc2NC1=O		≥200 µM
Cc1cn([C@H]2C[C@H](N=[N+]=[N-])[C@@H](CO[Si](C)(C)C(C)(C)C)O2)c(=O)n(CC(=O)O)c1=O		80 µM
Nc1ncnc2c1ncn2CCOCP(=O)(O)O		54 µM
Cc1cn([C@H]2C[C@H](N=[N+]=[N-])[C@@H](CO)O2)c(=O)[nH]c1=O	MTT	>7.48 µg/mL
CCc1cc(=O)c2cc(C(C)(C)C)c3c(c2o1)[C@@H](OC(=O)C12CCC(C)(C(=O)O1)C2(C)C)[C@@H](OC(=O)C12CCC(C)(C(=O)O1)C2(C)C)C(C)(C)O3		>14.15 µM
Nc1nc(=O)n([C@@H]2CO[C@H](CO)S2)cc1F		>500 µM
CC(C)CN(C[C@@H](O)[C@H](Cc1ccccc1)NC(=O)O[C@H]1CCOC1)S(=O)(=O)c1ccc(N)cc1	MTT	>100 µM
Cc1cn([C@H]2C[C@H](N=[N+]=[N-])[C@@H](COC(=O)CCC(=O)OC[C@H]3O[C@@H]4O[C@H]5[C@H](O)[C@@H](O)[C@@H](O[C@H]6[C@H](O)[C@@H](O)[C@@H](O[C@H]7[C@H](O)[C@@H](O)[C@@H](O[C@H]8[C@H](O)[C@@H](O)[C@@H](O[C@H]9[C@H](O)[C@@H](O)[C@@H](O[C@H]3[C@H](O)[C@H]4O)O[C@@H]9CO)O[C@@H]8CO)O[C@@H]7CO)O[C@@H]6CO)O[C@@H]5CO)O2)c(=O)[nH]c1=O	MTT	8.2 µg/mL
Nc1ncnc2c1ncn2CCOCP(=O)(O)O		144 µM
Nc1ncnc2c1ncn2[C@H]1CC[C@@H](CO)O1		890 µM
Cc1ccc(NC(=O)CN2CCC(Nc3nccc(Oc4c(C)cc(C#N)cc4C)n3)CC2)cc1C	MTT	1.506 µM
CCC(CCC(C)C1CCC2C3C[C@@H](O)[C@@]4(O)C[C@@H](O)CCC4(C)C3CCC12C)C(C)C	MTT	>1000 µg/mL
Cc1nc2[nH]c(=S)[nH]c(=O)c2nc1C	MTT	>125 µg/mL
CSc1nc(N)c(C)c(/C(=N/O)c2ccccc2)n1		>25 µM
CCc1cc(=O)c2ccc3c(c2o1)[C@@H](OC(=O)C12CCC(C)(C(=O)O1)C2(C)C)[C@@H](OC(=O)C12CCC(C)(C(=O)O1)C2(C)C)C(C)(C)O3		43.08 µM
C=C(COCP(=O)(O)O)Cn1cnc2c(=O)[nH]c(N)nc21		>100 µM
Cc1cn([C@@H]2O[C@H](CO[Si](C)(C)C(C)(C)C)[C@@H](O)[C@H]2O[Si](C)(C)C(C)(C)C)c(=O)n(CCO)c1=O		46 µM
CC(C)c1c(CO)cn(Cc2ccncc2)c1Sc1cc(Cl)cc(Cl)c1		>200 µM
Nc1nc(=O)n([C@H]2CO[C@@H](CO)S2)cc1F		>500 µM
Cc1cn([C@H]2C=C[C@@H](CO[Si](C)(C)C(C)(C)C)O2)c(=O)n(CC(=O)O)c1=O		52 µM
O=c1c(O)c(-c2ccc(O)c(O)c2)oc2cc(O)ccc12		>12.5 µg/mL
Nc1nc(=O)n([C@@H]2CS[C@H](CO)O2)cc1F		20 µM
c1cc(CN2CCCNCCNCCCNCC2)cc(CN2CCCNCCNCCCNCC2)c1		>500 µg/mL
Cc1cn([C@H]2C[C@H](N=[N+]=[N-])[C@@H](CO)O2)c(=O)[nH]c1=O		>37.5 µM
CCN1C(=O)Nc2ccc(Cl)cc2S1(=O)=O		200 µM
CC(=O)O[C@@H]1[C@H](OC(=O)C23CCC(C)(C(=O)O2)C3(C)C)c2c(ccc3c(=O)cc(C)oc23)OC1(C)C		>40.2 µM
COc1ccc(Oc2coc3cc(OC)cc(O)c3c2=O)c(OC)c1		>100 µg/mL
C1CNCCNCCCN(CCCN2CCCNCCNCCCNCC2)CCNC1		>500 µg/mL
CSc1nc(N)c(C)c(C(=O)CCc2ccccc2)n1		>25 µM
COC(=O)CCn1c(=O)c(C)cn([C@@H]2O[C@H](CO[Si](C)(C)C(C)(C)C)[C@@H](O)[C@H]2O[Si](C)(C)C(C)(C)C)c1=O		17 µM
Cc1cn([C@H]2C[C@H](N=[N+]=[N-])[C@@H](COC(=O)CCC(=O)OCC3OC4OC5C(COS(=O)(=O)O)OC(OC6C(COS(=O)(=O)O)OC(OC7C(COS(=O)(=O)O)OC(OC8C(COS(=O)(=O)O)OC(OC9C(COS(=O)(=O)O)OC(OC3C(OS(=O)(=O)O)C4OS(=O)(=O)O)C(OS(=O)(=O)O)C9OS(=O)(=O)O)C(OS(=O)(=O)O)C8OS(=O)(=O)O)C(OS(=O)(=O)O)C7OS(=O)(=O)O)C(OS(=O)(=O)O)C6OS(=O)(=O)O)C(OS(=O)(=O)O)C5OS(=O)(=O)O)O2)c(=O)[nH]c1=O	MTT	55.33 µg/mL
COc1cc2occ(-c3ccc(O)cc3)c(=O)c2c(O)c1CC=C(C)C		28 µg/mL
Cc1ccc(NC(=O)CN2CCC(Nc3nccc(Oc4c(C)cc(C#N)cc4C)n3)CC2)cc1	MTT	2.019 µM
CC(C)c1c(CO)cn(Cc2ccncc2)c1Sc1ccccc1		29 µM
CC(C)c1cc(=O)c2ccc3c(c2o1)[C@@H](OC(=O)C12CCC(C)(C(=O)O1)C2(C)C)[C@@H](OC(=O)C12CCC(C)(C(=O)O1)C2(C)C)C(C)(C)O3		>15.04 µM
Cc1ccc(-c2nc3[nH]c(=S)[nH]c(=O)c3nc2-c2ccc(C)cc2)cc1	MTT	12.7 µg/mL
CCOC(=O)c1c[nH]c(Sc2cc(Cl)cc(Cl)c2)c1C(C)C		>200 µM
COc1ccc(CSc2nc(Cc3c(Cl)cccc3Cl)c(C)c(=O)[nH]2)cc1		>25 µM
COc1cccc(-c2nc3[nH]c(=S)[nH]c(=O)c3nc2-c2cccc(OC)c2)c1	MTT	63.9 µg/mL
CC(C)=CCN1C(C)C(=O)Nc2ccc(Cl)cc2S1(=O)=O		>200 µM
CCOCc1cc(=O)c2ccc3c(c2o1)[C@@H](OC(=O)C12CCC(C)(C(=O)O1)C2(C)C)[C@@H](OC(=O)C12CCC(C)(C(=O)O1)C2(C)C)C(C)(C)O3		>12.5 µM
Cc1cc(C)cc(NC(=O)CN2CCC(Nc3nccc(Oc4c(C)cc(C#N)cc4C)n3)CC2)c1	MTT	2.311 µM
Cc1cc(=O)c2ccc3c(c2o1)[C@@H](OC(=O)C12CCC(C)(C(=O)O1)C2(C)C)[C@@H](OC(=O)CC(C)C)C(C)(C)O3		13 µM
OCc1cn(Cc2ccncc2)c(Sc2ccccc2)c1-c1ccccc1		>200 µM
c1cc(CN2CCCNCCNCCCNCC2)ccc1CN1CCCNCCNCCCNCC1		>125 µg/mL
O=C1c2cccn2-c2ccc(Cl)cc2S(=O)(=O)N1C1CCCCC1		>200 µM
O=c1[nH]cnc2c1ncn2[C@H]1CC[C@@H](CO)O1	MTT	>100 µg/mL
Cc1cc(C#N)cc(C)c1Oc1ccnc(NC2CCN(CC(=O)Nc3ccccc3[N+](=O)[O-])CC2)n1	MTT	59.3 µM
Cc1[nH]c2ccccc2c1CC(=O)NC(Cc1ccccc1)C(=O)N(C)c1ccccc1	MTT	70 µM
CSc1nc(N)c(C)c(C(F)c2ccccc2)n1		>25 µM
CC1(C)Oc2ccc3ccc(=O)oc3c2[C@@H](OC(=O)C23CCC(C)(C(=O)O2)C3(C)C)[C@H]1OC(=O)C12CCC(C)(C(=O)O1)C2(C)C		>16.1 µM
CSc1nc(N)c(C)c(C(Cl)c2ccccc2)n1		>25 µM
Cc1cn([C@H]2C=C[C@@H](CO)O2)c(=O)[nH]c1=O	MTT	30 µg/mL